Measured values from several laboratories, pooled; numbers as filed in NIAID ChemDB.

Shared fields: tests on isolated targets

Neighbouring rows are from separate reports. ICn is the concentration giving n% inhibition. Fold resistance: result on the changed form divided by that on wild type. Inhibition is in % at the dose shown (toxicity tests: loss of growth or viability). Two numbers with a dash give a range or band. Blank or dashed fields: not listed here.

SMILES	target	strain	read by	tested at	endpoint	agent	mutations	result
CC(C)(C)NC(=O)[C@@H]1CSCN1C(=O)[C@@H](O)[C@H](Cc1ccccc1)NC(=O)[C@H](CS(C)(=O)=O)NC(=O)CNc1cccc2ccccc12	Protease			0.05 µM	inhibition	HIV-1		71.8%
Nc1ncnc2c1ncn2[C@H]1CC[C@@H](COP(=O)(O)OP(=O)(O)OP(=O)(O)OP(=O)(O)OC[C@@H]2CC[C@H](n3cnc4c(N)ncnc43)O2)O1	Reverse transcriptase		nucleotide incorporation / radiometric		fold resistance	HIV	RT-K65R	>5.5
CC1=C(CCC(=O)O)c2cc3nc(cc4[nH]c(cc5[nH]c(cc1n2)c(C)c5C(O)CO)c(C)c4C(O)CO)C(C)=C3CCC(=O)O	gp120				IC50	HIV-1		~60 µg/mL
Nc1nc2c(ncn2[C@H]2CC[C@@H](COP(=O)(O)OP(=O)(O)OP(=O)(O)OP(=O)(O)OC[C@@H]3CC[C@H](n4cnc5c(=O)[nH]c(N)nc54)O3)O2)c(=O)[nH]1	Reverse transcriptase		nucleotide incorporation / radiometric		fold resistance	HIV	RT-D67N K70R T215Y K219Q	0.11
O=C(O)c1ccc(-c2c3nc(c(-c4ccc(C(=O)O)cc4)c4ccc([nH]4)c(-c4ccc(C(=O)O)cc4)c4nc(c(-c5ccc(C(=O)O)cc5)c5ccc2[nH]5)C=C4)C=C3)cc1	gp120			60 µg/mL	inhibition	HIV-1		84.3%
CCN1c2ncc(CCOc3ccc(/C=C(\C)C(=O)O)c4ccccc34)cc2C(=O)N(C)c2ccc(Cl)nc21	Reverse transcriptase		nucleotide incorporation / radiometric		fold resistance	HIV-1	RT-Y188L	>10
Cc1ccc(CNC(=O)c2nc3n(c(=O)c2O)CCNCC3N(C)C(=O)C(=O)N(C)C)cc1Cl	Integrase		ELISA		IC50	HIV-1		<10 µM
C[C@H](CC(=O)O)C(=O)NC(C)(C)C#Cc1ccc(NC(=O)CSc2nnnn2-c2ccc(C3CC3)cc2Cl)c(Cl)c1	Reverse transcriptase		PicoGreen / fluorescence		IC50	HIV-1	RT-K103 Y181C	<1 µM
Nc1ncnc2c1ccn2[C@H]1C[C@H](F)[C@@H](COP(=O)(O)OP(=O)(O)OP(=O)(O)O)O1	Reverse transcriptase		nucleotide incorporation / radiometric		fold resistance	HIV	RT-K65R	5.36
Cc1ccc(S(=O)(=O)N2CCn3c(nc(C(=O)NCc4ccc(F)cc4)c(O)c3=O)C2)cc1	Integrase		ELISA		IC50	HIV-1		<10 µM
CCNC(=O)NC(C)(C)C#Cc1ccc(NC(=O)CSc2nnnn2-c2ccc(C3CC3)cc2Cl)c(Cl)c1	Reverse transcriptase	WT	PicoGreen / fluorescence		IC50	HIV-1		<1 µM
CN(C)CC1c2nc(C(=O)NCc3ccc(F)cc3)c(O)c(=O)n2CCN1S(C)(=O)=O	Integrase		ELISA		IC50	HIV-1		<10 µM
CCN1c2ncc(CCOc3ccc(C(=O)O)c4c3CCN(S(C)(=O)=O)C4)cc2C(=O)N(C)c2cccnc21	Reverse transcriptase		nucleotide incorporation / radiometric		fold resistance	HIV-1	RT-Y188L	1–10
O=C1Cn2c(nc(C(=O)NCc3ccc(F)cc3)c(O)c2=O)CN1	Integrase		ELISA		IC50	HIV-1		<10 µM
CC(C)(C#Cc1ccc(NC(=O)CSc2nnnn2-c2ccc(C3CC3)cc2Cl)c(Cl)c1)OCCN1CCCCC1	Reverse transcriptase		PicoGreen / fluorescence		IC50	HIV-1	RT-K103 Y181C	<1 µM
CSC[C@H](NC(=O)COc1cccc2ccccc12)C(=O)N[C@@H](Cc1ccccc1)[C@H](O)C(=O)N1CSC[C@H]1C(=O)NC(C)(C)C	Protease			0.05 µM	inhibition	HIV-1		97.1%
CCOC(=O)c1ccc(NC(=O)Nc2ccc(NC(=O)CSc3nnnn3-c3ccc(C(C)(C)C)cc3Cl)c(Cl)c2)cc1	Reverse transcriptase		PicoGreen / fluorescence		IC50	HIV-1	RT-K103 Y181C	<1 µM
Nc1ccn([C@H]2CC[C@@H](COP(=O)(O)OP(=O)(O)OP(=O)(O)OP(=O)(O)OC[C@@H]3CC[C@H](n4ccc(N)nc4=O)O3)O2)c(=O)n1	Reverse transcriptase		nucleotide incorporation / radiometric		fold resistance	HIV	RT-M41L T215Y	0.53
C=CC1=C(C)C2=NC1=CC1=NC(=C(CC)/C1=C\[O-])C=c1[n-]c3c(c1C)C(=O)[C@H](C(=O)OC)C=3C1=NC(=C2)[C@@H](C)[C@@H]1CCC(=O)OC/C=C(\C)CCCC(C)CCCC(C)CCCC(C)C.[Mg+2]	gp120			60 µg/mL	inhibition	HIV-1		63.4%
CCN1c2ncc(CCOc3ccc(C(=O)O)c4c3CCCC4)cc2C(=O)N(C)c2ccc(OC)nc21	Reverse transcriptase		nucleotide incorporation / radiometric		fold resistance	HIV-1	RT-Y188L	1–10
CC(C)[C@H](N)C(=O)N[C@H](C(=O)N[C@@H](Cc1ccccc1)[C@@H](O)C(=O)N(CC(=O)N[C@H](C(=O)N[C@H](C(N)=O)C(C)C)C(C)C)Cc1ccccc1)C(C)C	Protease			1000 µM	inhibition	HIV-1		97.7%
CC(C)(C#Cc1ccc(NC(=O)CSc2nnnn2-c2ccc(C3CC3)cc2Cl)c(Cl)c1)NC(=O)c1ccccc1	Reverse transcriptase		PicoGreen / fluorescence		IC50	HIV-1	RT-K103 Y181C	<1 µM
Cc1cc(CN2CCn3c(nc(C(=O)NCc4ccc(F)cc4)c(O)c3=O)C2(C)C)on1	Integrase		ELISA		IC50	HIV-1		<10 µM
CC(C)(C)c1ccc(-n2nnnc2SCC(=O)Nc2ccc(-c3ccc(C(=O)O)s3)cc2Cl)c(Cl)c1	Reverse transcriptase		PicoGreen / fluorescence		IC50	HIV-1	RT-K103 Y181C	<1 µM
C=C1c2cc(CCOc3ccc(NS(C)(=O)=O)c4ccccc34)cnc2N(CC)c2ncccc2N1C	Reverse transcriptase		nucleotide incorporation / radiometric		fold resistance	HIV-1	RT-V106A	>10
Cc1ccc(-c2c(SCC(=O)Nc3ccc(-c4ccc(CC(=O)O)cc4)cc3Cl)cnn2C)c(Cl)c1	Reverse transcriptase		PicoGreen / fluorescence		IC50	HIV-1	RT-K103 Y181C	<1 µM
Nc1nc2c(ncn2[C@H]2CO[C@@H](COP(=O)(O)OP(=O)(O)OP(=O)(O)O)O2)c(=O)[nH]1	Reverse transcriptase		radiometric		fold resistance	HIV	RT-M184V	1.2
O=C(CSc1nnnn1-c1ccc(C2CC2)cc1Cl)Nc1ccc(S(=O)(=O)N2CCC(C(=O)O)CC2)cc1Cl	Reverse transcriptase		PicoGreen / fluorescence		IC50	HIV-1	RT-K103 Y181C	<1 µM
Cc1cn([C@H]2CC[C@@H](COP(=O)(O)OP(=O)(O)OP(=O)(O)O)O2)c(=O)[nH]c1=O	Reverse transcriptase		nucleotide incorporation / radiometric		fold resistance	HIV	RT-M41L T215Y	1.09
Cc1ccc(-c2cn[nH]c2OCC(=O)Nc2ccc(-c3ccc(CC(=O)O)cc3)cc2Cl)c(Cl)c1	Reverse transcriptase		PicoGreen / fluorescence		IC50	HIV-1	RT-K103 Y181C	<1 µM
CN1CCn2c(nc(C(=O)NCc3ccc(F)cc3)c(O)c2=O)C(N(C)C(=O)C(=O)N(C)C)C1	Integrase		ELISA		IC50	HIV-1		<10 µM
CC(C)c1ccc(-n2nnnc2SCC(=O)Nc2ccc(-c3ccc(OCCN4CCCC4)cc3)cc2Cl)c(Cl)c1	Reverse transcriptase	WT	PicoGreen / fluorescence		IC50	HIV-1		<1 µM
NC(=O)C[C@H](NC(=O)[C@@H](N)Cc1ccccc1)C(=O)N[C@@H](Cc1ccccc1)[C@H](O)C(=O)NCC1CCCCC1	Protease			1000 µM	inhibition	HIV-1		83.6%
CC(C)(C)c1ccc(-n2nnnc2SCC(=O)Nc2ccc(C(=O)NN3CCOCC3)cc2Cl)c(Cl)c1	Reverse transcriptase		PicoGreen / fluorescence		IC50	HIV-1	RT-K103 Y181C	<1 µM
CCCC[C@@H](CN[C@@H](CCC(N)=O)C(=O)N[C@@H](CCCN=C(N)N)C(N)=O)NC(=O)[C@H](CCCC)NC(=O)C(NC(=O)C(NC(C)=O)[C@@H](C)O)[C@@H](C)CC	Protease		HPLC		IC50	HIV	PR-V82S	>2.17 µM
CC(C)(C)c1ccc(-n2nnnc2SCC(=O)Nc2ccc(OCC(=O)NCc3ccc(C(=O)O)cc3)cc2Cl)c(Cl)c1	Reverse transcriptase	WT	PicoGreen / fluorescence		IC50	HIV-1		<1 µM
CC1(C)CCN(C(=O)[C@@H](O)[C@H](Cc2ccccc2)NC(=O)[C@H](CC(N)=O)NC(=O)OCc2ccccc2)[C@@H]1C(N)=O	Protease			0.05 µM	inhibition	HIV-1		1.9%
C=Cc1c(C)c2cc3[nH]c(cc4nc(cc5nc(cc1[nH]2)C(C)=C5CCC(=O)OC)C(CCC(=O)OC)=C4C)c(C)c3C=C	gp120			60 µg/mL	inhibition	HIV-1		0%
CC(C)(C#Cc1ccc(NC(=O)CSc2nnnn2-c2ccc(C(C)(C)C)cc2Cl)c(Cl)c1)OCC(=O)NNC(N)=O	Reverse transcriptase	WT	PicoGreen / fluorescence		IC50	HIV-1		<1 µM

4 of the rows above, restated:

{"SMILES": "C[C@H](CC(=O)O)C(=O)NC(C)(C)C#Cc1ccc(NC(=O)CSc2nnnn2-c2ccc(C3CC3)cc2Cl)c(Cl)c1", "target": "Reverse transcriptase", "read by": "PicoGreen / fluorescence", "endpoint": "IC50", "agent": "HIV-1", "mutations": "RT-K103 Y181C", "result": "<1 µM"}
{"SMILES": "O=C(O)c1ccc(-c2c3nc(c(-c4ccc(C(=O)O)cc4)c4ccc([nH]4)c(-c4ccc(C(=O)O)cc4)c4nc(c(-c5ccc(C(=O)O)cc5)c5ccc2[nH]5)C=C4)C=C3)cc1", "target": "gp120", "tested at": "60 µg/mL", "endpoint": "inhibition", "agent": "HIV-1", "result": "84.3%"}
{"SMILES": "NC(=O)C[C@H](NC(=O)[C@@H](N)Cc1ccccc1)C(=O)N[C@@H](Cc1ccccc1)[C@H](O)C(=O)NCC1CCCCC1", "target": "Protease", "tested at": "1000 µM", "endpoint": "inhibition", "agent": "HIV-1", "result": "83.6%"}
{"SMILES": "C=C1c2cc(CCOc3ccc(NS(C)(=O)=O)c4ccccc34)cnc2N(CC)c2ncccc2N1C", "target": "Reverse transcriptase", "read by": "nucleotide incorporation / radiometric", "endpoint": "fold resistance", "agent": "HIV-1", "mutations": "RT-V106A", "result": ">10"}